Earlier results, collected in patent publication US10676780B2, “Stabilisation and isolation of extracellular nucleic acids” (QIAGEN GmbH, priority 2011, dated 2020).
pIC50: −log10 of the molar value.

Tested on: protein tyrosine phosphatase
Settings: cited from earlier work

In the case of Phenylarsine Oxide, the pIC50 is listed as 4.74.
